# Laboratory results: PubChem BioAssay AID1259414 (Drosophila RNAi Screening Center, 2018)
# Assay: 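Genome-wide screen for host control of endosymbiont load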 (primary screen)
# System: Drosophila JW18 cells infected with Wolbachia
# Knock-down reagent: long dsRNA against Drosophila genes, 0.25 µg dsRNA per well of a 384-well plate
# Duration: 5 days
# Challenge: cells persistently infected with Wolbachia before knock-down; no added drug
# Read-out: 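Automated imaging of bacterial rRNA staining divided by host cell count, reported as plate-normalised robust z-score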
# Direction: Wolbachia per cell robust z: higher = more Wolbachia per host cell than the plate typical
# Call rule: 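Hit when robust z is 1.5 or more, or -1.5 or less, in at least two of three replicates; excludes dsRNAs with several or no targets, genes not expressed in JW18 and well A1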
# The screen tested about 24,000 reagents; below is a random part of those with a known target gene and a result. Of all reagents, about 1,210 (5%) were called active. 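Inactive calls also include excluded dsRNAs with several or no targets, genes unexpressed in JW18, and well A1, regardless of score.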 The numbers tell different reagents against one gene apart. A plus sign joins genes that one reagent is predicted to hit.
gene,reagent no.,"Wolbachia per cell robust z, rep 1","Wolbachia per cell robust z, rep 2","Wolbachia per cell robust z, rep 3",outcome
CG8128,1,-2.06,0.59,-0.754,inactive
CG11858,1,-3.33,-2.66,-3.75,active
CG11858,2,-0.421,0.31,-1.05,inactive
CG14262,1,-4.11,1.07,0.774,inactive
nod,1,-0.177,1.39,-0.621,inactive
nod,2,0.172,0.74,-0.0208,inactive
shams,1,1.07,0.252,0.195,inactive
CG7791,1,-3.68,1.06,-0.462,inactive
Ype,1,-3.02,-8.12,-0.781,active
CG18754,1,-3.63,-0.293,-4.58,active
CG3777,1,-0.583,-1.6,-1.14,inactive
CG3777,2,0.933,-0.128,0.236,inactive
cpa,1,0.332,0.83,0.956,inactive
dbf,1,-0.622,0.0948,-0.52,inactive
dbf,2,-1.1,1.09,-1.57,inactive
Lmx1a,1,-0.00336,-0.077,0.596,inactive
Lmx1a,2,0.633,-0.0135,-0.392,inactive
CG10205,1,0.51,0.372,0.314,inactive
Lcp65Ab2 + Lcp65Ab1,1,1.67,0.337,-4.07,inactive

Next part (3 carried over from the part before).
gene,reagent no.,"Wolbachia per cell robust z, rep 1","Wolbachia per cell robust z, rep 2","Wolbachia per cell robust z, rep 3",outcome
Lmx1a,2,0.633,-0.0135,-0.392,inactive
CG10205,1,0.51,0.372,0.314,inactive
Lcp65Ab2 + Lcp65Ab1,1,1.67,0.337,-4.07,inactive
CG34286,1,-2.24,0.0766,-0.335,inactive
CG10209,1,0.631,-0.616,-1.44,inactive
Chsy,1,0.543,-0.368,-1.76,inactive
Chsy,2,-1.63,0.0105,-0.0671,inactive
ND-49L,1,-0.645,0.483,1.38,inactive
ND-49L,2,-0.894,0.377,-0.097,inactive
CG13155,1,1.01,0.736,0.291,inactive
Uev1A,1,0.802,1.2,-3.16,inactive
CG8034,1,0.707,0.174,1.06,inactive
CG8034,2,0.532,0.376,0.277,inactive
CG6511,1,-1.24,0.258,-0.192,inactive
krimp,1,-0.785,0.365,0.435,inactive
CG31211,1,0.957,0.0818,0.264,inactive
CG31211,2,0.597,1.44,-2.57,inactive
CG31211,3,-1.64,0.211,0.632,inactive
CG2063,1,3.56,2.78,1.74,active
sordd1,1,1.17,-0.623,-0.676,inactive
CG32267,1,0.0154,1.02,0.401,inactive
CG32267,2,0.206,-1.03,0.207,inactive
CG33795,1,-0.679,-0.325,-1.19,inactive
Arglu1,1,-1.53,0.674,0.732,inactive
Arglu1,2,0.069,-0.276,-0.903,inactive
Hr3,1,-1.62,0.0292,-1.11,inactive
Hr3,2,0.659,1.21,-0.132,inactive
CG15022,1,0.0443,-0.858,1.31,inactive
CG15022,2,1.33,-0.986,-0.0825,inactive
CG7289,1,-3.63,0.377,0.0565,inactive
